A mixed list of measured activities; the numbers were collected in NIAID ChemDB.

Common to all: growth or infection tests; species: Vaccinia virus; measure: EC50

ECn: concentration that inhibits the pathogen or its effect by n%. Conditions beyond the fields shown may differ between rows. Two numbers with a dash give a range or band. Blank or dashed fields: not listed here.

structure | strain | cell line | value
C=CCNc1nc(N)nc2c1ncn2CCOCP(=O)(O)O | WR | HFF | 23 µM
Nc1ncnc2c1ncn2C[C@H]1COP(=O)(O)CO1 | - | Primary rabbit kidney cells | 0.7 µg/mL
Nc1ncnc2c1ncn2C[C@H]1COP(=O)(O)CO1 | - | Primary rabbit kidney cells | 0.7 µg/mL
C[C@H](O)[C@@H]1C[C@H](Cn2cnc3c(=O)[nH]cnc32)C1(C)C | - | E6SM | >300 µg/mL
Oc1cccc(O)c1O | - | E6SM | 30 µg/mL
CC(C)c1nc(CN(C)C(=O)N[C@H](C(=O)N[C@@H](Cc2ccccc2)C[C@H](O)[C@H](Cc2ccccc2)NC(=O)OCc2cncs2)C(C)C)cs1 | - | HFF | >300 µM
CCCCCCCCCCCCCCCCOCCCOP1(=O)CO[C@@H](Cn2ccc(N)nc2=O)CO1 | Copenhagen | HFF | 3.8 µM
CCCCOC(=O)C(C)NP(=O)(COCCn1cnc2c(N)ncnc21)NC(C)C(=O)OCCCC | WR | HFF | 4.4 µM
Nc1ncnc2c1ncn2CCOCP(=O)(O)O | - | Primary rabbit kidney cells | 150 µg/mL
NC(=S)N=Nc1c(O)[nH]c2ccccc12 | - | HeLa | <1 µg/mL
Nc1nc(NC2CC2)c2ncn([C@H]3C=C[C@@H](CO)C3)c2n1 | - | HFF | >300 µM
Nc1ccn(C[C@@H](CO)OCP(=O)(O)O)c(=O)n1 | - | VERO | 74 µM
Nc1ncnc2c1ncn2[C@H]1[C@H](O)[C@H](O)[C@]2(CO)O[C@H]12 | - | PRK | 0.1 µg/mL
O=c1[nH]cnc2c1ncn2[C@H]1CC[C@@H](CO)O1 | - | HFF | >300 µM
Nc1ncnc2c1ncn2CCOCP(=O)(O)O | - | - | 555 µM
Nc1ccn(C[C@H]2COP(=O)(O)CO2)c(=O)n1 | WR | HFF | 58.8 µM
Nc1nccc2c1ncn2[C@@H]1C[C@H](CO)[C@@H](O)[C@H]1O | - | PRK | 0.8 µg/mL
Cn1cc(NC(=O)c2cc(NC(=O)CCCCCCCC(=O)Nc3cc(C(=O)Nc4cc(C(=O)NCCC(N)=[NH2+])n(C)c4)n(C)c3)cn2C)cc1C(=O)NCCC(N)=[NH2+] | - | VERO | 55 µg/mL
O=C(O)c1cc(O)ccc1O | - | E6SM | 7 µg/mL
C[C@H](O)[C@@H]1C[C@H](CCn2cnc3c(N)ncnc32)C1(C)C | - | E6SM | >150 µg/mL
CCCCCCCCCCCCCCCCCCOCCOP(=O)(O)CO[C@H](CO)Cn1ccc(N)nc1=O | Copenhagen | HFF | 0.2 µM
Nc1nc(NCC(F)(F)F)c2ncn(CCOCP(=O)(O)O)c2n1 | NYC | HFF | 50 µM
C[C@H](O)[C@@H]1C[C@H](CCn2nnc3c(N)ncnc32)C1(C)C | - | E6SM | 4 µg/mL
NC(=O)c1c[se]c([C@@H]2O[C@H](CO)[C@@H](O)[C@H]2O)n1 | Elstree | VERO | 3 µg/mL
CCCCOC(=O)[C@H](C)NP1(=O)CO[C@@H](Cn2ccc(N)nc2=O)CO1 | Copenhagen | HFF | 4.6 µM
Nc1cc(OC[C@H](CO)OCP(=O)(O)O)nc(N)n1 | - | - | 19 µM
Cn1cc(NC(=O)c2cc(NC(=O)CN=C(N)N)cn2C)c(C(=O)NCCC(=N)N)c1 | - | PRK | 2 µg/mL
Cc1cc(O)ccc1O | - | E6SM | 40 µg/mL
CC(C)(C)C(=O)OCOP(=O)(COCCn1cnc2c(N)ncnc21)OCOC(=O)C(C)(C)C | NYC | HFF | 23 µM
Cc1cc(O)cc(O)c1CC(=O)O | - | E6SM | 40 µg/mL
Nc1ncnc2c1ncn2C[C@H](O)CO | - | E6SM | 100 µg/mL
Cc1cn([C@H]2C=C[C@@H](CO)O2)c(=O)[nH]c1=O | - | HFF | >446 µM
Nc1nc2c(ncn2CCOCP(=O)(O)O)c(=O)[nH]1 | - | Primary rabbit kidney cells | 10 µg/mL
Nc1ncnc2c1ncn2CC(O)C(=O)O | - | PRK | 3–30 µg/mL
Nc1ncnc2c1ncn2C[C@H](O)CO | - | PRK | 40 µg/mL
NC(=O)c1c[se]c([C@@H]2O[C@H](CO)[C@@H](O)[C@H]2O)n1 | - | VERO | 3 µg/mL
Nc1ncnc2c1ncn2C[C@@H](CO)OCP(=O)(O)O | - | Primary rabbit kidney cells | 0.7 µg/mL
Cc1cn([C@H]2C[C@H](N=[N+]=[N-])[C@@H](CO)O2)c(=O)[nH]c1=O | - | HFF | >300 µM
C[C@H](COc1cc(N)nc(N)n1)OCP(=O)(O)O | - | - | >720 µM
Nc1nccc2c1ncn2[C@@H]1C[C@H](CO)[C@@H](O)[C@H]1O | - | PRK | 2 µg/mL
Nc1nc(N)c2ncn(CCOCP(=O)(O)O)c2n1 | NYC | HFF | 122 µM
Nc1ccn(C[C@@H](CO)OCP(=O)(O)O)c(=O)n1 | - | Primary rabbit kidney cells | 4 µg/mL
Nc1ccn(C[C@@H](CO)OCP(=O)(O)O)c(=O)n1 | Copenhagen | HFF | 46.2 µM
NC(=O)c1ncn([C@@H]2O[C@H](CO)[C@@H](O)[C@H]2O)n1 | - | E6SM | 33 µg/mL
O=c1[nH]cnc2c1ncn2CCOCP(=O)(O)O | - | Primary rabbit kidney cells | >400 µg/mL
O=c1[nH]c(=O)n([C@@H]2O[C@H](CO)[C@@H](O)[C@@H]2F)cc1I | - | HFF | 1.5 µM

A second listing of 5 rows from above:

structure | strain | cell line | value
C=CCNc1nc(N)nc2c1ncn2CCOCP(=O)(O)O | WR | HFF | 23 µM
Cc1cn([C@H]2C=C[C@@H](CO)O2)c(=O)[nH]c1=O | - | HFF | >446 µM
Nc1nccc2c1ncn2[C@@H]1C[C@H](CO)[C@@H](O)[C@H]1O | - | PRK | 0.8 µg/mL
Nc1ccn(C[C@@H](CO)OCP(=O)(O)O)c(=O)n1 | - | Primary rabbit kidney cells | 4 µg/mL
Nc1ccn(C[C@@H](CO)OCP(=O)(O)O)c(=O)n1 | Copenhagen | HFF | 46.2 µM